A mixed list of measured activities; the numbers were collected in NIAID ChemDB.

Shared fields: whole-cell or culture tests; species: Candida albicans

Neighbouring rows are from separate reports. A number after MIC or MFC names an inhibition level or a share of isolates. Blank or dashed fields: not listed here.

| structure | strain or isolate | measure | read by | result |
|---|---|---|---|---|
| Cc1c(S(=O)(=O)c2ccccc2)[n+](=O)c2cc(Cl)ccc2n1[O-] | Clinical isolate 9 | MIC |  | 31.25 µg/mL |
| CCCCCOc1ccc(-c2ccc(-c3ccc(C(=O)N[C@H]4CCCNC(=O)C5C[C@H](NC(=O)Nc6ccccc6)CN5C(=O)C(C(C)O)NC(=O)C(CCc5ccc(O)cc5)NC(=O)C5C[C@@H](O)CN5C(=O)C(C(C)O)NC4=O)cc3)cc2)cc1 | ATCC 10231 | MIC |  | 6.25 µg/mL |
| Cc1c(O)cccc1C(=O)N[C@@H](CSc1ccccc1)[C@H](O)CN1C[C@H]2CCCC[C@H]2C[C@H]1C(=O)NC(C)(C)C | I162B | MIC |  | 64 µg/mL |
| Cc1c(Sc2ccccc2)[n+](=O)c2cc(C(F)(F)F)ccc2n1[O-] | Clinical isolate 6 | MIC |  | 15.6 µg/mL |
| C=CCc1ccc(O)c(OC)c1 | ATCC 10261 | MIC90 | turbidity | 480 µg/mL |
| Clc1cccc(Cl)c1COc1ccc(C(c2nccc3ccccc23)n2ccnc2)cc1 | 17 strains | MIC90 |  | ≥256 µg/mL |
| CCCCCOc1ccc(-c2ccc(-c3ccc(C(=O)N[C@H]4CCCNC(=O)[C@@H]5C[C@H](N)CN5C(=O)[C@H]([C@@H](C)O)NC(=O)[C@H](Cc5ccc(O)cc5)NC(=O)[C@@H]5C[C@@H](O)CN5C(=O)[C@H]([C@@H](C)O)NC4=O)cc3)cc2)cc1 | ATCC 62376 | MIC |  | 0.2 µg/mL |
| O=[N+]([O-])O.c1coc(C(c2nccc3ccccc23)n2ccnc2)c1 | 44 strains | Mean MIC |  | >256 µg/mL |
| CCCCCOc1ccc(-c2ccc(-c3ccc(C(=O)N[C@H]4CCCNC(=O)C5C[C@H](NCCN)CN5C(=O)C(C(C)O)NC(=O)C(CCc5ccc(O)cc5)NC(=O)C5C[C@@H](O)CN5C(=O)C(C(C)O)NC4=O)cc3)cc2)cc1 | ATCC 10231 | MIC |  | 0.39 µg/mL |
| Clc1ccc(COc2ccc(C(c3cccc4ccccc34)n3ccnc3)cc2)c(Cl)c1.O=[N+]([O-])O | 16 strains | Mean MIC |  | ≥256 µg/mL |
| O=[n+]1c(Sc2ccccc2)c(CBr)n([O-])c2ccccc21 | Clinical isolate 23 | MIC |  | 31.25 µg/mL |
| Clc1ccc(COc2ccc(C(c3nccc4ccccc34)n3ccnc3)cc2)c(Cl)c1 | 16 strains | Mean MIC |  | ≥256 µg/mL |
| CCCCCOc1ccc(-c2ccc(-c3ccc(C(=O)N[C@H]4CCCNC(=O)C5C[C@H](N)CN5C(=O)C(C(C)O)NC(=O)C(OCc5ccccc5)NC(=O)C5CC(O)CN5C(=O)C(C(C)O)NC4=O)cc3)cc2)cc1 | ATCC CCH442 | MIC |  | 1.56 µg/mL |
| CCOc1cc2c(cc1F)n([O-])c(C)c(S(=O)(=O)c1ccccc1)[n+]2=O | Clinical isolate 4 | MIC |  | 15.6 µg/mL |
| CCC(C)n1ncn(-c2ccc(N3CCN(c4ccc(OC[C@H]5CO[C@](Cn6cncn6)(c6ccc(Cl)cc6Cl)O5)cc4)CC3)cc2)c1=O | ATCC 90028 | MIC |  | 0.0313 µg/mL |
| Clc1ccc(COc2ccc(C(c3nccc4ccccc34)n3ccnc3)cc2)cc1.O=[N+]([O-])O | 17 strains | MIC90 |  | ≥256 µg/mL |
| N=C(N)c1ccc2nc(-c3ccc(-c4nc5ccc(C(=N)N)cc5[nH]4)[nH]3)[nH]c2c1 | Isolate CA2256 fluconazole-resistant | MIC |  | 0.78 µg/mL |
| CCCCCOc1ccc(-c2ccc(-c3ccc(C(=O)N[C@H]4CCCNC(=O)[C@@H]5C[C@H](N)CN5C(=O)[C@H](CCCN)NC(=O)C(CCc5ccc(O)cc5)NC(=O)[C@@H]5C[C@@H](O)CN5C(=O)[C@H]([C@@H](C)O)NC4=O)cc3)cc2)cc1 | ATCC 62376 | MIC |  | 0.2 µg/mL |

The last 2 rows once more:

structure,strain or isolate,measure,read by,result
N=C(N)c1ccc2nc(-c3ccc(-c4nc5ccc(C(=N)N)cc5[nH]4)[nH]3)[nH]c2c1,Isolate CA2256 fluconazole-resistant,MIC,,0.78 µg/mL
CCCCCOc1ccc(-c2ccc(-c3ccc(C(=O)N[C@H]4CCCNC(=O)[C@@H]5C[C@H](N)CN5C(=O)[C@H](CCCN)NC(=O)C(CCc5ccc(O)cc5)NC(=O)[C@@H]5C[C@@H](O)CN5C(=O)[C@H]([C@@H](C)O)NC4=O)cc3)cc2)cc1,ATCC 62376,MIC,,0.2 µg/mL